Measured values from several laboratories, pooled; numbers as filed in NIAID ChemDB.

All rows: tests in culture; species: Cryptococcus neoformans; measure: MIC

a–b is a range or a potency band.

compound,strain,read by,result
CCCCCCCCCCCCCC(=O)NC(CCCN)C(=O)NC(CCCN)C(N)=O,ATCC 2344,broth dilution,25 µg/mL
CC(C)(C)c1ccc(COC(Cn2ccnc2)c2ccc(Cl)cc2)cc1,,,128 µg/mL
CCCCCCCCC[C@@H]1CC(=O)NCC(=O)N[C@@H](CCCCN)C(=O)N[C@@H](CC(C)C)C(=O)N1,,,4 µg/mL
CCC(C)n1ncn(-c2ccc(N3CCN(c4ccc(OC[C@H]5CO[C@](Cn6cncn6)(c6ccc(Cl)cc6Cl)O5)cc4)CC3)cc2)c1=O,TIMM1855,,0.13 µg/mL
CCn1cc(C(=O)O)c(=O)c2cc(F)c(N3CCN(CN4C(=O)C(=Nc5ccc(S(=O)(=O)Nc6ncccn6)cc5)c5cc(Br)ccc54)CC3)cc21,,,2.44 µg/mL
OC(Cn1cncn1)(Cn1nnc(CCN2CCN(c3ccc(Cl)cc3)CC2)n1)c1ccc(F)cc1F,LA314,,>16 µg/mL
COc1cc(O)c2c(c1)C(=O)c1c(cc3c(c1O)-c1c(cc(C)c(C(=O)N[C@H](CO)C(=O)O)c1O)[C@H](OC1OC(C)C(N)C(OC4OCC(O)C(O)C4O)C1O)[C@H]3O)C2=O,IAM 4514,,0.8 µg/mL
CCn1cc(C(=O)O)c(=O)c2cc(F)c(N3CCN(CN4C(=O)C(=Nc5ccc(S(=O)(=O)Nc6ncnc(OC)c6OC)cc5)c5ccccc54)CC3)cc21,,,1.22 µg/mL
C[C@@H](N1CCN(c2ccc(OC(F)(F)C(F)F)cc2)C1=O)C(O)(Cn1cncn1)c1ccccc1F,TIMM1740,,<0.016 µg/mL
Cc1ccc(C(Cn2ccnc2)OCc2ccc(-c3ccccc3)cc2)cc1,,,>128 µg/mL
C[C@@H](N1CCN(c2ccc(OC(F)(F)C(F)F)cc2)C1=O)C(O)(Cn1cncn1)c1ccc(F)cc1F,TIMM1740,,<0.016 µg/mL
COc1ccccc1/C=C1\COc2ccc(-c3ccccc3)cc2C1=O,25,,25 µg/mL
CCn1cc(C(=O)O)c(=O)c2cc(F)c(N3CCN(CN4C(=O)C(=Nc5ccc(S(=O)(=O)Nc6ncnc(OC)c6OC)cc5)c5cc(Br)ccc54)CC3)cc21,,,1.22 µg/mL
CCCCCCCCCCCCCC(=O)NC(CCCN)C(=O)NC(CCCN)C(=O)NC(CCCN)C(N)=O,ATCC 2344,broth dilution,12.5 µg/mL
CCn1cc(C(=O)O)c(=O)c2cc(F)c(N3CCN(CN4C(=O)/C(=N\c5ncc(Cc6cc(OC)c(OC)c(OC)c6)c(N)n5)c5cc(Br)ccc54)CC3)cc21,,,0.6 µg/mL
Clc1ccc(OCCC(Cn2ccnc2)c2ccc(Cl)cc2Cl)c(Cl)c1,,,<1 µg/mL
OC(Cn1cncn1)(Cn1nnc(CCN2CCN(c3ccccc3Cl)CC2)n1)c1ccc(F)cc1F,LA314,,4 µg/mL
CC(C)C(=N)CCC[C@H]1CO[C@@](Cn2cccc2)(c2ccc(F)cc2F)C1,IFM.40092,,12.5 µg/mL
C[C@H](N1CCN(c2ccc(-n3cccn3)cc2)C1=O)[C@@](O)(Cn1cncn1)c1ccc(F)cc1F,TIMM1855,,0.06 µg/mL
CCCCCCCCCCCCCCCCCC(=O)NC(CCCN)C(=O)NC(CCCN)C(=O)NC(CCCN)C(N)=O,ATCC 2344,broth dilution,6.25 µg/mL
CCCC(O)C/C=C\C=C\C(=O)OC[C@H]1O[C@@H](O[C@@H]2[C@H](OC(=O)/C=C/C=C/CC(O)/C(C)=C/C=C/CCC(C)CC)[C@@H](O)[C@]3(OCc4cc(O)cc(O)c43)O[C@@H]2CO)[C@H](O)[C@@H](O)[C@H]1O,MY1146,,>128 µg/mL
Clc1ccc(C(CCOc2ccccc2Cl)Cn2ccnc2)c(Cl)c1,,,<1 µg/mL
CCc1ccc(/C=C2\CCc3ccccc3C2=O)cc1,93/V,,12.5 µg/mL
CCCCCCCCCCCC(=O)NC(CCCN)C(=O)NC(CCCN)C(N)=O,ATCC 2344,broth dilution,50 µg/mL
C[C@@H](SC1COC(/C=C/C=C/c2ccc(F)cc2F)OC1)[C@](O)(Cn1cncn1)c1ccc(F)cc1F,TIMM0362,,<0.008 µg/mL
CCn1cc(C(=O)O)c(=O)c2cc(F)c(N3CCN(CN4C(=O)C(=Nc5ccc(S(=O)(=O)Nc6ncccn6)cc5)c5cc(Cl)ccc54)CC3)cc21,,,2.44 µg/mL
Cc1ccc(C(Cn2ccnc2)OCc2ccc(C(C)(C)C)cc2)cc1,,,>128 µg/mL
CCCS(=O)c1ccc2nc(NC(=O)OC)[nH]c2c1,2 isolates,,>10 µg/mL
Clc1ccc(C(CCCOc2ccc(Br)cc2)Cn2ccnc2)c(Cl)c1,,,10 µg/mL
CC(N1CCN(c2ccc(-n3ccnn3)cc2)C1=O)C(O)(Cn1cncn1)c1ccc(F)cc1F,TIMM1740,,0.13 µg/mL
CCCCCCCCCC[C@H]1NC(=O)[C@H](CC(C)(C)C)NC(=O)[C@H](CCCCN)NC(=O)CNC(=O)[C@H]1O,,,4 µg/mL
Clc1ccc(C(COc2ccccc2Cl)Cn2ccnc2)c(Cl)c1,,,<1 µg/mL
C[C@H](n1nnnc1CCN1CCN(C(c2ccccc2)c2ccccc2)CC1)[C@](O)(Cn1cncn1)c1ccc(F)cc1F,LA314,,>16 µg/mL
Clc1ccc(OCC(Cn2ccnc2)c2ccc(Cl)cc2)cc1,,,<1 µg/mL
C[C@@H](n1ccn(-c2ccc(OC(F)(F)C(F)F)cc2)c1=O)C(O)(Cn1cncn1)c1ccccc1F,TIMM1855,,0.13 µg/mL
OC(Cn1cncn1)(Cn1cncn1)c1ccc(F)cc1F,TIMM0362,,50 µg/mL
CCn1c2c(c3ccccc31)C(=O)c1cc(C)cnc1C2=O,,,>200 µg/mL
CC(C)C(=O)CCC[C@H]1CO[C@@](Cn2cccc2)(c2ccc(F)cc2F)C1,B42419,,>100 µg/mL
C(=C\c1ccccc1)/COC(Cn1ccnc1)c1ccccc1,,,>128 µg/mL
C[C@H](n1nnnc1CCN1CCN(c2ccccc2)CC1)[C@](O)(Cn1cncn1)c1ccc(F)cc1F,LA314,,>16 µg/mL
CC(C)C(=N)CCC[C@H]1CO[C@@](Cn2ccnc2)(c2ccc(F)cc2F)C1,IFM.40092,,25 µg/mL
COc1ccc(/C=C2\CSc3ccc(Cl)cc3C2=O)cc1OC,93/V,,12.5 µg/mL
CC(C)C(=N)CCC=C1CO[C@@](Cn2cncn2)(c2ccc(F)cc2F)C1,A.34144,,50 µg/mL
CCCCCCCCOc1ccc(C(=O)NC2C[C@@H](O)[C@@H](O)NC(=O)C3[C@@H](O)[C@@H](C)CN3C(=O)C(C(C)O)NC(=O)C([C@H](O)[C@@H](O)c3ccc(O)cc3)NC(=O)C3C[C@@H](O)CN3C(=O)C(C(C)O)NC2=O)cc1,,,64 µg/mL
CCCCCCCCC[C@H]1NC(=O)[C@H](CC(C)(C)C)NC(=O)[C@H](CCCN)NC(=O)CNC(=O)C1(F)F,,,8 µg/mL
Clc1ccc(C(CCCOc2ccccc2Br)Cn2ccnc2)c(Cl)c1,,,<1 µg/mL
NC(=NC1CCCC1)c1ccc(-c2ccc(-c3ccc(C(N)=NC4CCCC4)cc3)o2)cc1,H99,,0.78 µg/mL
CC(N1CCN(c2ccc(-n3cncn3)cc2)C1=O)C(O)(Cn1cncn1)c1ccc(F)cc1F,TIMM1740,,0.06 µg/mL
CCCCCCCCCC(=O)NC(CCCN)C(=O)NC(CCCN)C(=O)NC(CCCN)C(N)=O,ATCC 2344,broth dilution,100 µg/mL
C[C@@H](n1ccn(-c2ccc(F)cc2)c1=O)C(O)(Cn1cncn1)c1ccc(F)cc1F,TIMM1740,,0.25 µg/mL
CCCCCCCCCCCC(=O)NC(CCCN)C(=O)NC(CCCN)C(=O)NC(CCCN)C(N)=O,ATCC 2344,broth dilution,25 µg/mL
C[C@@H](n1ncn(-c2ccc(OCC(F)(F)C(F)F)cc2)c1=O)[C@](O)(Cn1cncn1)c1ccc(F)cc1F,TIMM1855,,0.25 µg/mL
CC(C)C(=O)CCC[C@H]1CO[C@@](Cn2ccnc2)(c2ccc(F)cc2F)C1,A.34144,,1.56 µg/mL
C[C@@H](c1ncncc1F)[C@](O)(Cn1cncn1)c1ccc(F)cc1F,B 36203,broth dilution,0.016 µg/mL
CCCCCCCCCC[C@@H]1NC(=O)[C@H](CC(C)(C)C)NC(=O)[C@H](CCCCN)NC(=O)CNC(=O)[C@H]1O,,,8 µg/mL
C[C@@H](N1CCN(c2ccc(C(F)(F)F)cc2)C1=O)C(O)(Cn1cncn1)c1ccc(F)cc1F,TIMM1740,,<0.016 µg/mL
CCC(C)CC(C)CCCCCCCCC(=O)NC1C[C@H](O)[C@@H](O)NC(=O)[C@@H]2[C@@H](O)[C@@H](C)CN2C(=O)[C@H]([C@H](O)CC(N)=O)NC(=O)[C@H](C(O)[C@H](O)c2ccc(O)cc2)NC(=O)[C@@H]2C[C@@H](O)CN2C(=O)[C@H]([C@@H](C)O)NC1=O,MY1051,,>128 µg/mL
CC(N1CCN(c2ccc(-n3cnnn3)cc2)C1=O)C(O)(Cn1cncn1)c1ccc(F)cc1F,TIMM1855,,0.06 µg/mL
COCCNC(=O)[C@H]1[C@@H]2C[C@@H](O[C@@H]3O[C@H](C)[C@@H](O)[C@H](N)[C@@H]3O)/C=C/C=C/C=C/C=C/C=C/C=C/C=C/[C@H](C)[C@@H](O)[C@H](C)[C@H](C)OC(=O)C[C@H](O)C[C@H](O)[C@@H](O)CC[C@H](O)C[C@H](O)C[C@](O)(C[C@@H]1O)O2,3 strains,,0.8–3.2 µg/mL
Clc1ccc(OCC(Cn2ccnc2)c2ccc(Br)cc2)cc1,,,10 µg/mL
CCOc1ccc(/C=C2\CCc3ccccc3C2=O)cc1,93/V,,25 µg/mL
Clc1ccc(C(CCOc2ccc(Br)cc2)Cn2ccnc2)c(Cl)c1,,,<10 µg/mL
C[C@@H](CC1COC(/C=C/C=C/c2ccc(C#N)cc2F)OC1)[C@](O)(Cn1cncn1)c1ccc(F)cc1F,TIMM0362,,0.008 µg/mL

Again, the opening 4 rows:

compound,strain,read by,result
CCCCCCCCCCCCCC(=O)NC(CCCN)C(=O)NC(CCCN)C(N)=O,ATCC 2344,broth dilution,25 µg/mL
CC(C)(C)c1ccc(COC(Cn2ccnc2)c2ccc(Cl)cc2)cc1,,,128 µg/mL
CCCCCCCCC[C@@H]1CC(=O)NCC(=O)N[C@@H](CCCCN)C(=O)N[C@@H](CC(C)C)C(=O)N1,,,4 µg/mL
CCC(C)n1ncn(-c2ccc(N3CCN(c4ccc(OC[C@H]5CO[C@](Cn6cncn6)(c6ccc(Cl)cc6Cl)O5)cc4)CC3)cc2)c1=O,TIMM1855,,0.13 µg/mL

Lines come from different laboratories, so protocols vary. Blank or dashed fields: not listed here.